Measured values from several laboratories, pooled; numbers as filed in NIAID ChemDB.

Common to all: growth or infection tests; species: Mycobacterium tuberculosis

MIC50, MIC90 and the like: level of inhibition, or share of isolates inhibited.

compound,method,endpoint,tested at,mutations,strain,cell line,result
NC[C@H]1O[C@H](O[C@H]2[C@H](O)[C@@H](O[C@H]3O[C@H](CO)[C@@H](O)[C@H](N)[C@H]3O)[C@H](N)C[C@@H]2N)[C@H](O)[C@@H](O)[C@@H]1O,-,MIC,-,-,Isolate 13,-,2 µg/mL
C[C@H]1OC(=O)N(CCCC=C2SCCCS2)C1=O,BACTEC,MIC bound,-,-,H37Rv,-,>12.5 µg/mL
CCOC(=O)Nc1cc(NC(CC)C(=O)c2ccccc2)c([N+](=O)[O-])c(N)n1,-,EC50,-,-,H37Rv,-,>12.5 µg/mL
COc1ccc(Sc2ccncc2)cc1OC,-,inhibition,6.25 µg/mL,-,H37Rv,-,0%
CN1c2ccccc2CCC1CCc1ccc2c(c1)OCO2,-,MIC,-,-,MT6,-,>339 µg/mL
O=C1C[C@@H](c2ccc(O)cc2)Oc2cc(O)c(-c3c(O)cc4c(c3O)C(=O)C[C@@H](c3ccc(O)cc3)O4)c(O)c21,-,EC50,-,-,H37Rv,-,>12.5 µg/mL
CO[C@H]1/C=C/O[C@@]2(C)Oc3c(C)c(O)c4c(O)c(c(/C=N/N5CCN(C)CC5)c(O)c4c3C2=O)NC(=O)/C(C)=C\C=C\[C@H](C)[C@H](O)[C@@H](C)[C@@H](O)[C@@H](C)[C@H](OC(C)=O)[C@@H]1C,-,Mean MIC,-,-,H37Rv,-,0.075 µg/mL
NNC(=O)c1ccncc1,-,MIC,-,-,Isolate 14,-,1 µg/mL
Cc1ccc2c(=O)n(-c3ccc(Cl)c(Cl)c3)c(=O)oc2c1,-,MIC,-,-,CNCTC MY331/88,-,8 µM
CN(C)c1ccc(O)c2c1C[C@H]1C[C@H]3[C@H](N(C)C)C(=O)C(C(N)=O)=C(O)[C@@]3(O)C(=O)C1=C2O,-,Median MIC,-,-,H37Ra,-,2 µg/mL
COc1ccc(N=Nc2ccc(N)nc2N)cc1,BACTEC,inhibition,12.5 µg/mL,-,H37Rv,-,24%
Cc1ccc(Sc2ncccn2)cc1,-,MIC,-,-,H37Ra,-,>12.8 µg/mL
CC1COc2c(N3CCN(C)CC3)c(F)cc3c(=O)c(C(=O)O)cn1c23,-,MIC,-,-,900201,-,0.75 µg/mL
COc1ccc(/C=C/C(=O)c2ccccc2F)cc1,-,inhibition,12.5 µg/mL,-,H37Rv,-,82%
CCOC(=O)Nc1cc(NC(O)CCCN(CC)CC)c2ncc(-c3cc(OC)c(OC)c(OC)c3)nc2n1,-,EC50,-,-,H37Rv,-,>12.5 µg/mL
NC(N)=NS(=O)(=O)c1ccc(N2C(=O)CC3(CCCC3)C2=O)cc1,BACTEC,MIC bound,-,-,H37Rv,-,>12.5 µg/mL
COc1ccc2nc(C)cc(N/N=C/c3ccc(OC)c4ccccc34)c2c1,-,inhibition,12.5 µg/mL,-,H37Rv,VERO,100%
C=C(NC(=O)c1csc(-c2nc3c(cc2O)-c2nc(cs2)C(=O)N[C@@H]([C@@H](C)O)C(=O)N/C(=C(\C)OC)c2nc(cs2)C(=O)N[C@@H]2c4nc(cs4)C(=O)N[C@@H](COC(=O)c4c5c6c(cccc6n4O)COC(=O)[C@@H](O[C@H]4C[C@]6(C)OCN(C)[C@@H]6[C@H](C)O4)[C@H]2OC5)c2nc-3cs2)n1)C(N)=O,broth dilution,MIC,-,Multidrug-resistant,Clinical isolate 565,-,10–100 µM
COc1ccc(/C=N/Nc2cc(C)nc3cc(Cl)cc(Cl)c23)c2ccccc12,-,MIC,-,-,H37Rv,VERO,>12.5 µg/mL
CN1C[C@H](C(=O)N[C@]2(C)O[C@@]3(O)[C@@H]4CCCN4C(=O)[C@H](Cc4ccccc4)N3C2=O)C=C2c3cccc4[nH]cc(c34)C[C@H]21,BACTEC,MIC,-,-,H37Rv,-,≥12.8 µg/mL
Cc1cccc(CSc2ncnc3nc[nH]c23)c1,-,MIC90,-,-,H37Rv,-,>6.25 µg/mL
NC[C@H]1O[C@H](O[C@H]2[C@H](O)[C@@H](O[C@H]3O[C@H](CO)[C@@H](O)[C@H](N)[C@H]3O)[C@H](N)C[C@@H]2N)[C@H](O)[C@@H](O)[C@@H]1O,-,MIC,-,-,ATCC 35827 (kanamycin-resistant),-,>128 µg/mL
CO[C@H]1/C=C/O[C@@]2(C)Oc3c(C)c(O)c4c(O)c(c5c(c4c3C2=O)NC2(CCN(CC(C)C)CC2)N=5)=NC(=O)/C(C)=C\C=C\[C@H](C)[C@H](O)[C@@H](C)[C@@H](O)[C@@H](C)[C@H](OC(C)=O)[C@@H]1C,-,MIC,-,-,Strain 82 (R529K),-,0.25 µg/mL
CO[C@H]1/C=C/O[C@@]2(C)Oc3c(C)c(O)c4c(O)c(c(/C=N/N5CCN(C)CC5)c(O)c4c3C2=O)NC(=O)/C(C)=C\C=C\[C@H](C)[C@H](O)[C@@H](C)[C@@H](O)[C@@H](C)[C@H](OC(C)=O)[C@@H]1C,broth dilution,MIC,-,Isoniazid-resistant,Clinical isolate 9139,-,≤0.1 µM
CCN(CC)CCNC(=O)c1nn(C)c(=S)[nH]c1=S,BACTEC,inhibition,6.25 µg/mL,-,H37Rv,-,77%
CO[C@H]1/C=C/O[C@@]2(C)Oc3c(C)c(O)c4c(=O)c(c5oc6cc(N7CCN(CC(C)C)CC7)cc(=O)c6nc5c4c3=C2O)NC(=O)/C(C)=C\C=C\[C@H](C)[C@H](O)[C@@H](C)[C@@H](O)[C@@H](C)[C@H](OC(C)=O)[C@@H]1C,-,MIC,-,-,3064 (rifampin-sensitive),-,0.012 µg/mL
COc1ccc(C2Oc3ccc(C(=O)O)cc3C(=O)C2O)cc1,-,EC50,-,-,-,-,>12.5 µg/mL
O=C(COc1ccccc1Cl)N1N=C(c2ccccc2)CC1(O)c1ccccc1,BACTEC,MIC bound,-,-,H37Rv,-,>12.5 µg/mL
CO[C@H]1/C=C/O[C@@]2(C)Oc3c(C)c(O)c4c(=O)c(c5oc6cc(N7CCN(C(C)C)CC7)cc(=O)c6nc5c4c3=C2O)NC(=O)/C(C)=C\C=C\[C@H](C)[C@H](O)[C@@H](C)[C@@H](O)[C@@H](C)[C@H](OC(C)=O)[C@@H]1C,-,MIC,-,-,3064 (rifampin-sensitive),-,0.012 µg/mL
CN[C@@H]1[C@H](O[C@H]2[C@H](O[C@H]3[C@H](O)[C@@H](O)[C@H](N=C(N)N)[C@@H](O)[C@@H]3N=C(N)N)O[C@@H](C)[C@]2(O)C=O)O[C@@H](CO)[C@H](O)[C@H]1O,-,MIC,-,-,Isolate 4,-,8 µg/mL
Cc1ccc2c(=O)n(-c3ccc(C(F)(F)F)cc3)c(=O)oc2c1,-,MIC,-,-,CNCTC MY331/88,-,32 µM
Nc1cc(C(=O)O)nc(N)n1,BACTEC,MIC bound,-,-,H37Rv,-,>12.5 µg/mL
O=c1oc2cc(Cl)ccc2c(=O)n1-c1cccc(F)c1,-,MIC,-,-,CNCTC MY331/88,-,8 µM
CCOC(=O)Nc1cc2c(c(N)n1)[N+](=O)OC(c1ccccc1)NN2,-,EC50,-,-,H37Rv,-,>12.5 µg/mL
C[C@H]1COc2c(N3CCN(C)CC3)c(F)cc3c(=O)c(C(=O)O)cn1c23,-,MIC,-,-,001-013 (drug-resistant),-,0.75 µg/mL
CCOc1ccc2c(NN)ccnc2c1,-,MIC,-,-,H37Rv,VERO,>12.5 µg/mL
COc1ccc2c(c1)OC(c1cccc([N+](=O)[O-])c1)CC2=O,-,inhibition,12.5 µg/mL,-,H37Rv,-,0%
CCCCCc1cc(OC)c2ccccc2n1,-,MIC,-,-,MT4,-,12.5 µg/mL
CC(=O)Nc1c(Cl)c(Cl)c2[nH]c(=O)c3cc(Cl)ccc3c2c1Cl,BACTEC,inhibition,12.5 µg/mL,-,H37Rv,-,25%
O=c1oc2ccccc2c(=O)n1-c1ccc(Br)cc1,-,MIC,-,-,CNCTC MY331/88,-,31 µM
CCOC(=O)Nc1cc(NCCc2ccc(S(N)(=O)=O)cc2)c2ncc(C)nc2n1,-,EC50,-,-,H37Rv,-,>12.5 µg/mL
NNC(=O)c1ccncc1,broth dilution,MIC,-,Rifampicin- isoniazid- moxifloxacin-resistant,Clinical isolate 6134,-,>10 µM
C=C/C(C)=C/[C@@]1(C)SC(=O)C(C)=C1O,-,MIC,-,-,NHN113,-,20 µg/mL
COc1cc(OC)c2c(c1)OC(c1cc(OC)c(OC)c(OC)c1)C(Br)(Br)C2=O,-,EC50,-,-,-,-,>12.5 µg/mL
Cc1onc(-c2ccccc2Cl)c1C(=O)N[C@@H]1C(=O)N2[C@@H]1SC(C)(C)[C@@H]2C(=O)O,-,Median MIC,-,-,H37Ra,-,64 µg/mL
NNC(=O)c1ccncc1,-,MIC,-,-,7S,-,0.1 µg/mL
CO[C@H]1/C=C/O[C@@]2(C)Oc3c(C)c(O)c4c(O)c(c(/C=N/N5CCN(C6CCCC6)CC5)c(O)c4c3C2=O)NC(=O)/C(C)=C\C=C\[C@H](C)[C@H](O)[C@@H](C)[C@@H](O)[C@@H](C)[C@H](OC(C)=O)[C@@H]1C,-,MIC,-,-,1023,-,0.04 µg/mL
CCOC(=O)C1CCCC12Nc1cccc3cccc(c13)N2,BACTEC,MIC bound,-,-,H37Rv,-,>12.8 µg/mL
C=C(NC(=O)c1csc(-c2nc3c(cc2O)-c2nc(cs2)C(=O)N[C@@H]([C@@H](C)O)C(=O)N/C(=C(\C)OC)c2nc(cs2)C(=O)N[C@@H]2c4nc(cs4)C(=O)N[C@@H](COC(=O)c4c5c6c(cccc6n4O)COC(=O)[C@@H](O[C@H]4C[C@](C)(O)[C@H](N(C)C)[C@H](C)O4)[C@H]2OC5)c2nc-3cs2)n1)C(N)=O,broth dilution,MIC,-,Rifampicin- and isoniazid-resistant,Clinical isolate 18460,-,≤2.5 µM
O=C1c2cscc2C(=O)c2sccc21,resazurin,MIC bound,-,-,H37Rv,-,>6.25 µg/mL
CCOC(=O)Nc1cc(N)c2c(n1)OCC(c1ccc(OC)cc1)=N2,-,inhibition,12.5 µg/mL,-,H37Rv,-,0%
O=C(Nc1ccc(Cl)cc1)Nc1nnc2nc(CC(=O)c3cccc([N+](=O)[O-])c3Cl)c(=O)[nH]n12,BACTEC,inhibition,12.5 µg/mL,-,H37Rv,-,30%
CC(=O)NC[C@H]1CN(c2ccc(N3CCOCC3)c(F)c2)C(=O)O1,-,MIC,-,-,11S,-,0.5 µg/mL
NCC[C@H](O)C(=O)N[C@@H]1C[C@H](N)[C@@H](O[C@H]2O[C@H](CN)[C@@H](O)[C@H](O)[C@H]2O)[C@H](O)[C@H]1O[C@H]1O[C@H](CO)[C@@H](O)[C@H](N)[C@H]1O,-,Median MIC,-,-,H37Ra,-,0.6 µg/mL
O=C1OC2C3CC(C(C(=O)O)C13)C2N1C(=O)CCC1=O,BACTEC,inhibition,12.5 µg/mL,-,H37Rv,-,21%
COc1ccc(CSc2ncccn2)cc1,-,MIC,-,-,H37Ra,-,>12.8 µg/mL
CCOC(=O)Nc1cc(NC(c2ccccc2)c2ccccc2)c([N+](=O)[O-])c(Cl)n1,-,EC50,-,-,H37Rv,-,>12.5 µg/mL
CCCCCCCCCC/C(C)=N/NC(=O)c1ccc[n+](C)c1.Cc1ccc(S(=O)(=O)O)cc1,BACTEC,inhibition,12.5 µg/mL,-,H37Rv,-,-15%
C[C@H]1COc2c(N3CCN(C)CC3)c(F)cc3c(=O)c(C(=O)O)cn1c23,resazurin,MIC,-,INH resistant,Clinical isolate BRF 26,-,0.25 µg/mL
O=C(Nc1ccc(CSc2ccc(Cl)cc2)o1)N1CCOCC1,BACTEC,MIC,-,-,H37Rv,-,≥12.5 µg/mL
Clc1ccc(Sc2nc(Cl)nc3nc[nH]c23)cc1,-,inhibition,6.25 µg/mL,-,H37Rv,-,41%
CC(C)(C)c1cc(C(O)(C(F)(F)F)C(F)(F)F)c2c(c1)C(C(F)(F)F)(C(F)(F)F)OS2(=O)=O,BACTEC,inhibition,12.5 µg/mL,-,H37Rv,-,0%
CCOc1ccc2c(N/N=C/c3c(OC)ccc4ccccc34)cc(C)nc2c1,-,MIC,-,-,H37Rv,VERO,6.25 µg/mL
CCN(CC)C(=S)Sc1nsc(SC(=S)N(CC)CC)c1C#N,BACTEC,inhibition,128 µg/mL,-,H37Rv,-,100%
Clc1ccccc1Sc1ncnc2nc[nH]c12,-,inhibition,6.25 µg/mL,-,H37Rv,-,0%
CO/C(C)=C1/NC(=O)[C@H]([C@@H](C)O)NC(=O)c2csc(n2)-c2cc(O)c(-c3nc(C(=O)NCCCN4CCOCC4)cs3)nc2-c2csc(n2)[C@@H]2COC(=O)c3c4c5c(cccc5n3O)COC(=O)[C@@H](O[C@H]3C[C@](C)(O)[C@H](N(C)C)[C@H](C)O3)[C@@H](OC4)[C@H](NC(=O)c3csc1n3)c1nc(cs1)C(=O)N2,broth dilution,MIC,-,-,Clinical isolate 10367,-,≤2.5 µM
NC(=O)c1cnccn1,-,MIC,-,-,Isolate 9004 monodrug-resistant,-,>300 µg/mL
COc1c(C)n(CCO)ccc1=O,BACTEC,MIC bound,-,-,H37Rv,-,>12.5 µg/mL
O=C(/C=C/c1ccc([O-])c(C[O-])c1)c1cccc(O)c1,-,inhibition,12.5 µg/mL,-,-,-,53%
COc1ccc(-c2cc(-c3ccco3)c(C#N)c(=S)n2C2OC(CO)C(O)C(O)C2O)cc1,BACTEC,inhibition,12.5 µg/mL,-,H37Rv,-,7%
COc1ccc(CSc2ccccn2)cc1,-,MIC90,-,-,H37Rv,-,>6.25 µg/mL
CC(C)C[C@H]1C(=O)N2CCC[C@H]2[C@]2(O)O[C@](NC(=O)[C@@H]3C=C4c5cccc6[nH]c(Br)c(c56)C[C@H]4N(C)C3)(C(C)C)C(=O)N12,BACTEC,MIC bound,-,-,H37Rv,-,>12.8 µg/mL
NNC(=O)c1ccncc1,-,MIC,-,-,PR455,-,0.16 µg/mL
Cc1cc(Cl)ccc1NC(=O)CC/C(CC(=O)C(C)C)=N\NC(=O)C[n+]1ccccc1.[Cl-],BACTEC,MIC bound,-,-,H37Rv,-,>12.5 µg/mL
COc1ccc(Sc2nc(Cl)nc3nc[nH]c23)cc1,-,MIC,-,-,H37Ra,-,>12.8 µg/mL

ECn: concentration that inhibits the pathogen or its effect by n%. Lines come from different laboratories, so protocols vary. MIC bound: limit read from a one-dose screen. Inhibition is in % at the dose shown (toxicity tests: loss of growth or viability). a–b is a range or a potency band. Blank or dashed fields: not listed here.